Results of unrelated studies side by side (data: NIAID ChemDB).

MIC bound: limit read from a one-dose screen. Lines come from different laboratories, so protocols vary. An empty or dashed field is not shown. Inhibition is in % at the dose shown (toxicity tests: loss of growth or viability). ICn is the concentration giving n% inhibition.

SMILES,cells,test,dose,strain or isolate,measure,target,method,agent,result
CC(=O)c1ccc(Br)cc1,,culture,,H37Rv,MIC,,,Mycobacterium tuberculosis,>100 µg/mL
O=C1c2ccccc2C(=O)c2c1nc1sccn21,,culture,,H37Rv,MIC bound,,BACTEC,Mycobacterium tuberculosis,≤12.5 µg/mL
c1ccc(-c2cncc(N3CCN(c4ccccn4)CC3)n2)cc1,,target,1 µM,,inhibition,UL97 kinase,,Cytomegalovirus,<50%
Fc1ccc(N2CCCCC2)c(NC(=S)c2ccncc2)c1,,host protein,10 µM,,inhibition,PAK5,kinase activity,,0%
Nc1cc(O)c(C(=O)O)cc1C(=O)O,,culture,,H37Rv,MIC,,,Mycobacterium tuberculosis,>100 µg/mL
CC(=O)Oc1ccc2ccc(=O)oc2c1OC(C)=O,,culture,12.5 µg/mL,H37Rv,inhibition,,BACTEC,Mycobacterium tuberculosis,18%
CN(C)c1ccc(-c2cncc(N3CCN(c4cccc(C(F)(F)F)c4)CC3)n2)cc1,,target,10 µM,,inhibition,UL97 kinase,,Cytomegalovirus,>15%
O=C1NC(=S)N/C1=C\c1ccccc1,,culture,,H37Rv,MIC,,,Mycobacterium tuberculosis,>100 µg/mL
CC(C)(C)N1CCOCN2CCCCC2CCN(C(C)(C)C)CCOCN2CCCCC2CC1,,culture,,H37Rv,MIC bound,,BACTEC,Mycobacterium tuberculosis,>12.5 µg/mL
Cc1cccc(-c2cncc(N3CCN(c4cccc(C(F)(F)F)c4)CC3)n2)c1C,,target,,,IC50,UL97 kinase,,Cytomegalovirus,<100 µM
Cc1cc(S(=O)(=O)c2ccc(N)cc2)ccc1N,,culture,,H37Rv,MIC,,,Mycobacterium tuberculosis,25 µg/mL
OCc1ccc(-c2cncc(N3CCN(c4ccc(F)cc4F)CC3)n2)cc1,,target,,,IC50,UL97 kinase,,Cytomegalovirus,<100 µM
S=C([S-])NC1CCCCC1.[Na+],,culture,12.5 µg/mL,H37Rv,inhibition,,BACTEC,Mycobacterium tuberculosis,-17%
Cc1ccc(-c2cncc(N3CCN(c4cccc(Cl)c4)CC3)n2)cc1,,target,10 µM,,inhibition,UL97 kinase,,Cytomegalovirus,>15%
Cc1cccc2c(=O)c3cccc([C@H](C)C(=O)O)c3oc12,,culture,12.5 µg/mL,H37Rv,inhibition,,BACTEC,Mycobacterium tuberculosis,0%
COc1cccc2cccnc12,,culture,,H37Rv,MIC,,,Mycobacterium tuberculosis,>100 µg/mL
CN1CCN(C(=S)S)CC1,VERO,culture,,H37Rv,MIC,,,Mycobacterium tuberculosis,>6.25 µg/mL
COc1cccc(O)c1,,culture,,H37Rv,MIC,,,Mycobacterium tuberculosis,>100 µg/mL
COc1cc(C2c3cc4c(cc3C3OC(=O)C2C3CO)OCO4)cc(OC)c1OC,,culture,12.5 µg/mL,H37Rv,inhibition,,BACTEC,Mycobacterium tuberculosis,13%
Nc1cnc2ccccc2c1C(=O)O,,culture,,H37Rv,MIC,,,Mycobacterium tuberculosis,>100 µg/mL
Fc1ccc(N2CCN(c3cncc(-c4ccc5ccccc5c4)n3)CC2)c(F)c1,,target,,,IC50,UL97 kinase,,Cytomegalovirus,<10 µM